{"source": "paper PMC7703574", "about": "(Journal of medicinal chemistry, 2020)", "test_system": "CD4-dependent HIV-1ADA", "experiment": "Infectivity of […] cells by CD4-dependent HIV-1ADA", "conditions": "escalating concentrations"}
{"smiles": "CC1(C)CC(NC(=O)C(=O)Nc2ccc(Cl)cc2)CC(C)(C)N1", "note": "[NBD-556]", "values": [{"measurement": "infection of […] cells enabled", "result": "significantly enabled the infection"}]}
